This is an account of results in BindingDB's records for 39691526.

Amino acid sequences for entries named in this document (tags omitted). Residues count along the entry.
UniProt P06276, 29-602 limits assumed: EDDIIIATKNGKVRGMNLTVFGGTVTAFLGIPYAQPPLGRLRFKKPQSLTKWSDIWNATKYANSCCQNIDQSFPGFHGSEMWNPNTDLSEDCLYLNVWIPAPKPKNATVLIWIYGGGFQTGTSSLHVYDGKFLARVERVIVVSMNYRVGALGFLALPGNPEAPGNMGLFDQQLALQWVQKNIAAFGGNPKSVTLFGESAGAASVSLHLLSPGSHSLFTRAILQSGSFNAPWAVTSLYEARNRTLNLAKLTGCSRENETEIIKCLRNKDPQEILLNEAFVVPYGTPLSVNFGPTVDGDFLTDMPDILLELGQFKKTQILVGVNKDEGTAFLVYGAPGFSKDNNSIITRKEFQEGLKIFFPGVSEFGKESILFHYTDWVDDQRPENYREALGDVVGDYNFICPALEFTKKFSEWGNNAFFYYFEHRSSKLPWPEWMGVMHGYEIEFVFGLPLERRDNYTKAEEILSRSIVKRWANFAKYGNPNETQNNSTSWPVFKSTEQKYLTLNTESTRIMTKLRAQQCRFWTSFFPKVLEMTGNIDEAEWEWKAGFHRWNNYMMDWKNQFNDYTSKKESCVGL
UniProt P22303, 32-614 limits assumed: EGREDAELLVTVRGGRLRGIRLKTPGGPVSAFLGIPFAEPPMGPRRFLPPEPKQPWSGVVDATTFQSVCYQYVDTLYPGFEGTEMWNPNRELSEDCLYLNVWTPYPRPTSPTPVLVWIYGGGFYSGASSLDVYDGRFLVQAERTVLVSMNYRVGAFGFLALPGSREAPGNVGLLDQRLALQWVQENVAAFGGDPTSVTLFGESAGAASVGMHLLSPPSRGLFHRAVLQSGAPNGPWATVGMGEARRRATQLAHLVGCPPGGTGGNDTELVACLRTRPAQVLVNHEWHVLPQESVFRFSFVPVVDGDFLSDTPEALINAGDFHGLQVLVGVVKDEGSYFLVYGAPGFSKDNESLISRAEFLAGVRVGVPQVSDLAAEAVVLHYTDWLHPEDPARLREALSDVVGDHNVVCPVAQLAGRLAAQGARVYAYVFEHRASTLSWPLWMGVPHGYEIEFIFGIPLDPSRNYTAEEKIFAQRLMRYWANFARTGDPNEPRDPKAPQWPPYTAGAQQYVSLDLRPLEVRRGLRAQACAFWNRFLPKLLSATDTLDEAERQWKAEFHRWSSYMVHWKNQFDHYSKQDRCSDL

The target of one experiment is Cholinesterase (Homo sapiens, UniProt P06276). The experiment can be described thus: Inhibition of human recombinant BChE using butyrylcholine iodide as substrate by Ellman's method.
Another experiment concerns the target Acetylcholinesterase (Homo sapiens, UniProt P22303). As to the kind of experiment: Inhibition of human recombinant AChE using acetylthiocholine iodide as substrate by Ellman's method.

The structures appear in SMILES notation.

For `C[n+]1cccc(Cl)c1/C=N/O`, the IC50 on Cholinesterase was above 800 µM; on Acetylcholinesterase, 450 µM. As to `C[n+]1cc(Br)ccc1/C=N/O`, the IC50 on Cholinesterase was above 800 µM. Take `C[n+]1cccc(F)c1/C=N/O`: the values for the IC50 at Cholinesterase and at Acetylcholinesterase were above 600 µM and 522 µM, respectively. Turning to `C[n+]1cccc(Br)c1/C=N/O`, the IC50 was above 800 µM at Cholinesterase and 385 µM at Acetylcholinesterase.

`C[n+]1cc(F)ccc1/C=N/O`: the results for the IC50 at Cholinesterase and on Acetylcholinesterase were above 800 µM and 277 µM, respectively. In the same order, the values of `C[n+]1cc(Cl)ccc1/C=N/O` are above 800 µM and 133 µM.
